Compound potency records, mixed from different reports. Data source: NIAID ChemDB in PubChem.

All rows: tests in culture; species: HIV-1; method: p24 / ELISA; endpoint: inhibition

An empty or dashed field is not shown. Inhibition is in % at the dose shown (toxicity tests: loss of growth or viability). Lines come from different laboratories, so protocols vary.

compound,cell line,tested at,setting,strain or isolate,value
COc1cc(O)c2c(=O)oc3cc(O)cc(C)c3c2c1,PBMC,35 µM,3 d,NL4-3,66%
N#CC[C@H](C1CCCC1)n1cc(-c2ncnc3[nH]ccc23)cn1,Macrophage,3.1 µM,inside macrophages,BaL,90%
Cc1cc2c(C(C)C)c(O)c(O)c(C=O)c2c(O)c1-c1c(C)cc2c(C(C)C)c(O)c(O)c(C=O)c2c1O,MT-4,10 µg/mL,-,IIIB,100%
Cc1cn([C@H]2C[C@H](N=[N+]=[N-])[C@@H](CO)O2)c(=O)[nH]c1=O,Primary T lymphocytes,0.02 µM,-,-,90%
C[C@@H]1[C@H](O)[C@@H](C)/C=C/C=C/CC/C=C/C=C/C=C/C=C/C(O[C@H]2O[C@H](C)[C@@H](O)[C@H](N)[C@@H]2O)CC2O[C@](O)(CC(O)C(O)CCC(O)CC(O)CC(O)CC(=O)O[C@H]1C)CC(O)C2C(=O)O,H9,10 µg/mL,-,-,88%
Cc1cn([C@H]2C[C@H](F)[C@@H](CO)O2)c(=O)[nH]c1=O,MT-4,0.034 µM,-,121-2(PRE-AZT),95%
O=c1oc2ccccc2c(O)c1N=Nc1ccc(-c2nnc(Sc3ccccc3)o2)cc1,HeLa,100 µM,-,NL4-3,6%
C[C@H]1O[C@@H](O[C@H]2[C@@H](O)C[C@H](O[C@H]3[C@@H](O)C[C@H](O[C@H]4CC[C@@]5(C)[C@H](CC[C@@H]6[C@@H]5C[C@@H](O)[C@]5(C)[C@@H](C7=CC(=O)OC7)CC[C@]65O)C4)O[C@@H]3C)O[C@@H]2C)C[C@H](O)[C@@H]1O,PBMC,0.025 µM,-,BaL,90%
Cn1c(=O)n(-c2ccc(C(C)(C)C#N)cc2)c2c3cc(-c4cnc5ccccc5c4)ccc3ncc21,Macrophage,0.025 µM,-,-,83%
Cc1cn([C@H]2C[C@H](N=[N+]=[N-])[C@@H](CO)O2)c(=O)[nH]c1=O,Monocytes + Monocyte,0.0017 µg/mL,-,BaL,90%
O=c1oc2ccccc2c2c1C(c1cccnc1)c1c(c3ccccc3oc1=O)O2,SupT1,100 µM,-,93IN101,20%
N#CC[C@H](C1CCCC1)n1cc(-c2ncnc3[nH]ccc23)cn1,Macrophage,3.1 µM,-,BaL,90%
CN[C@@H]1C[C@H]2O[C@@](C)([C@@H]1OC)n1c3ccccc3c3c4c(c5c6ccccc6n2c5c31)C(=O)N[C@@H]4O,MOLT-4/HIV-1 + MOLT-4,0.08 µM,-,-,20%
NC[C@@H]1O[C@H](O[C@H]2[C@@H](O)[C@H](O[C@@H]3[C@@H](O)[C@H](N)C[C@H](N)[C@H]3O[C@H]3O[C@H](CN)[C@@H](O)[C@H](O)[C@H]3N)O[C@@H]2CO)[C@H](N)[C@@H](O)[C@@H]1O,U1/HIV-1 + U1,2500 µM,chronic infection,-,85%
O=C(O)P(=O)(O)O,H9,50 µg/mL,-,-,76%
C[C@]12CC[C@@H]3c4ccc(O)cc4CC[C@H]3[C@@H]1CC[C@@H]2O,PBMC,0.003 µM,-,BaL,40%
CC[C@@]1(O)C(=O)OCc2c1cc1n(c2=O)Cc2cc3c([N+](=O)[O-])cccc3nc2-1,U-937,0.04 µM,-,IIIB,80%
Cc1cn([C@H]2C[C@H](N=[N+]=[N-])[C@@H](COC(=O)C3=CN(C)C=CC3)O2)c(=O)[nH]c1=O,PBL(PHA STIM.) + PBL,1 µM,-,CD 451,100%

2 of the rows above, restated:

compound,cell line,tested at,setting,strain or isolate,value
Cc1cn([C@H]2C[C@H](N=[N+]=[N-])[C@@H](CO)O2)c(=O)[nH]c1=O,Monocytes + Monocyte,0.0017 µg/mL,-,BaL,90%
Cc1cc2c(C(C)C)c(O)c(O)c(C=O)c2c(O)c1-c1c(C)cc2c(C(C)C)c(O)c(O)c(C=O)c2c1O,MT-4,10 µg/mL,-,IIIB,100%